Measured values taken from ChEMBL document CHEMBL3813673, “Bistacrine derivatives as new potent antimalarials” (Bioorg Med Chem, 2016).

Test system: Plasmodium falciparum
Experiment: Inhibition of recombinant Plasmodium falciparum falcipain 2 assessed as hydrolysis of Cbz-Phe-Arg-AMC measured after 5 mins at 20 uM by spectrofluorometric method
Procedure, shortened: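 Recombinant falcipain-2 with Cbz-Phe-Arg-AMC substrate in 50 mM sodium acetate, pH 5.5, with 5 mM EDTA and 200 mM NaCl. Released AMC read by fluorescence (ex 380 nm, em 460 nm). Single-concentration screen; compounds giving over 35% inhibition went on to kinetic assays. Run twice.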

**Q.** With `c1ccc2c(NCCCCCCCCCNc3c4c(nc5ccccc35)CCCC4)c3c(nc2c1)CCCC3` as the compound, how does the inhibition read?
**A.** Its inhibition is 45.9%.
